Drawing on PubChem BioAssay AID577 (University of Pittsburgh Molecular Library Screening Center, 2007), this text covers z-score for 38 compounds.

Amino acid sequences for entries named in this document (tags omitted). Residues count along the entry.
UniProt P06935, 1371-1501 limits assumed: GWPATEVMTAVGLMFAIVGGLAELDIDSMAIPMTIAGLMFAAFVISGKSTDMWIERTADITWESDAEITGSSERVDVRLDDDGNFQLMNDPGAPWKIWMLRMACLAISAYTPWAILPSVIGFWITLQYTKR
UniProt P06935, 1502-1679 limits assumed: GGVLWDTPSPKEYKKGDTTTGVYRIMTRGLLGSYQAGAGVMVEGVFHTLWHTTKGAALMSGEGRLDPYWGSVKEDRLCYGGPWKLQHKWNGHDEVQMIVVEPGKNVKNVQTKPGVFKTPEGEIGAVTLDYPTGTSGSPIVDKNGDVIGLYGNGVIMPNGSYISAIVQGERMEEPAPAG

The list shows a part of the results, in another mix than the full data. The source made the active and inactive calls. No stated cut-off is given here; in the data, active means z-score below about -3; inactive means the rest.

The test deals with Genome polyprotein (West Nile virus) (UniProt P06935). Description: West Nile NS2B-NS3 proteinase blockers – biochemical, fluorogenic substrate, primary screen (AID 577). The note with it: WNV NS2B-NS3 protease, fluorogenic substrate Ex360/Em465; active compounds read low.
`Cc1c2non([O-])c-2c(C)[n+](=O)[n+]1[O-]`: the z-score is inactive: 0.81.
Next, `CP(=O)(Nc1ccccn1)Oc1ccccc1` (stereo not drawn): inactive: -0.82.
Consider `COc1ccccc1OP(C)(=O)Nc1ccc(C)c(C)c1` (stereo not drawn), for which the z-score is inactive: -0.17.
Next, `Cc1nc2ccc3ccccc3c2o1.O=[N+]([O-])c1cc([N+](=O)[O-])c(O)c([N+](=O)[O-])c1`: inactive: 0.04.
Next, `CCN(CC)CC(O)COC(=O)C(O)(c1ccccc1)C1CCCCC1` (stereo not drawn): inactive: 0.22.
Next, `COc1ccccc1OP(C)(=O)Nc1c(C)n(C)n(-c2ccccc2)c1=O` (stereo not drawn): inactive: 0.32.
Consider `CP(=O)(Oc1ccccc1)N1CCOC1=O` (stereo not drawn), for which the z-score was inactive: -0.72.
Under `CCc1nc2c(n1)c1c(non1O)c1c2no[n+]1[O-]` stands inactive: -0.4.
Under `O=P(Nc1nccs1)(c1ccccc1)c1ccccc1` stands inactive: 0.29; under `CCOP(C)(=S)SCC(=O)NC(C)(CC)C(=O)O` (stereo not drawn), inactive: -0.78.
Under `c1nnnn1CCn1cnnn1` stands inactive: 1.27.
As for `CP(=O)(Nc1ccc2c(c1)OCCO2)Oc1ccccc1` (stereo not drawn), the z-score was inactive: -0.34.
Next, `Cc1ccccc1NP(C)(=O)Nc1ccccc1C`: inactive: -0.83; `CN(C)CCOC(=O)C(O)(c1ccccc1)C1CCCCC1` (stereo not drawn): inactive: 1.22; `O=C(OC1CN2CCC1CC2)c1cccc(Cl)c1` (stereo not drawn): inactive: 0.96.
Turning to `COC(=O)c1cc2c(s1)N=C(c1ccccc1)N(C)P2(=O)N1CCOCC1` (stereo not drawn), the z-score is inactive: -0.45.
Next, `O=P1(Nc2nc3ccc(Cl)cc3s2)COc2ccccc2O1` (stereo not drawn): inactive: 0.16.
Next, `CP(=O)(Nc1ccccc1F)Oc1ccccc1` (stereo not drawn): inactive: -1.18; `Cc1cccc(OCC(=O)OC2CN3CCC2CC3)c1` (stereo not drawn): inactive: -0.01.
Next, `Cc1ccc(C)c(NP(C)(=O)Oc2ccccc2)c1` (stereo not drawn): inactive: 0.4; `CCOP1(=S)c2c(C)nn(CCC#N)c2N=C(c2ccccc2F)N1C` (stereo not drawn): inactive: -0.1.
Consider `O=P(Nc1nccs1)(c1ccccc1)c1nc2ccccc2s1` (stereo not drawn), for which the z-score was inactive: -0.67.
Next, `CCOP1(=S)c2c(C)nn(CCC#N)c2N=C(c2ccc(F)cc2)N1C` (stereo not drawn): inactive: 0.8.
Turning to `Cc1nn(-c2ccccc2)c2c1P(=O)(N1CCOCC1)N(C)C(c1ccccc1)=N2` (stereo not drawn), the z-score was inactive: 0.67.
Under `O=P1(Nc2ncccn2)COc2ccccc2OC1` stands inactive: 0.79; under `Cc1ccc(OCC(=O)OC2CN3CCC2CC3)cc1` (stereo not drawn), inactive: -0.14.
Next, `O=P1(Nc2ccc(Br)cn2)COc2ccccc2OC1`: inactive: 0.42.
Next, `O=P1(Nc2ccccn2)COc2ccccc2OC1`: inactive: 0.29.
In the case of `Clc1n[nH]nc1-c1nn[nH][15n]1`, the z-score was inactive: -0.93.
Under `Cc1nc2ccc3ccccc3c2s1.O=[N+]([O-])c1cc([N+](=O)[O-])c(O)c([N+](=O)[O-])c1` stands inactive: -0.73.
Next, `COP1(=S)c2c(C)nn(CCC#N)c2N=C(c2ccc(F)cc2)N1C` (stereo not drawn): inactive: -0.11; `CP(=O)(NC(=O)Nc1ccccc1)Oc1ccccc1` (stereo not drawn): inactive: -0.41; `O=C(COc1ccccc1)OC1CN2CCC1CC2` (stereo not drawn): inactive: 1.05.
With `CCOP(C)(=S)SCC(=O)NC(C)C(=O)O` (stereo not drawn), the z-score is inactive: 1.37.
Under `CP(=S)(Nn1cnnc1)Oc1ccccc1` (stereo not drawn) stands inactive: -1.06; under `COc1ccccc1OP(C)(=O)Nc1ccc(C)cc1` (stereo not drawn), inactive: 0.08.
As for `Cc1ccc(NP(C)(=O)Oc2ccccc2)c(C)c1` (stereo not drawn), the z-score was inactive: -1.06.
Consider `O=C(OC1CN2CCC1CC2)C12CC3CC(CC(C3)C1)C2` (stereo not drawn), for which the z-score was inactive: -1.45.
